Compound potency records, mixed from different reports. Data source: NIAID ChemDB in PubChem.

All rows: whole-cell or culture tests; agent: HIV-1

Lines come from different laboratories, so protocols vary.

compound	cell line	measure	mutations	strain	read by	value
COP(=O)(c1cc(C)cc(CCC#N)c1)c1c(C(N)=O)[nH]c2ccc(Cl)c(F)c12	MT-2	EC50	K103N/Y181C	Clinical isolate	-	0.002 µM
Cc1ncc(-c2ccc(OC[C@@H](C)Oc3ccccc3)nc2)c(N2CCC(C)(C)CC2)c1[C@H](OC(C)(C)C)C(=O)O	MT-2	EC50	-	NL4-3	luminescence	0.001 µM
CC(=O)Oc1ccccc1C(=O)N1CCN(C(=O)C(=O)c2c[nH]c3ccccc23)CC1	MT-2	EC50	-	BRU	RT activity	<10 µM
O=C1Nc2ccc(F)c(F)c2[C@@](/C=C/C2CC2)(C(F)(F)F)N1	-	EC90	RT-V106A	-	-	<0.012 µM
N#Cc1cc2[nH]c3ccccc3c2n(-c2ccc([N+](=O)[O-])cc2)c1=O	MT-4	EC50	-	LAI WT	cytopathic effect / MTT	0.32 µM
O=C(C(=O)N1CCN(C(=O)c2c(F)cccc2F)CC1)c1c[nH]c2ccccc12	MT-2	EC50	-	BRU	RT activity	<10 µM
Cc1ccc(-c2c([C@H](OC(C)C)C(=O)O)c(C)nc3ccccc23)cc1	C8166	EC50	-	-	luciferase / reporter gene	<20 µM
CCN1c2ncc(CCOc3ccc(C(=O)NNC)cc3C)cc2C(=O)N(C)c2cccnc21	C8166	EC50	-	IIIB	p24	<0.01 µM
Cc1cc(Cl)ccc1OCCNc1ccc(-c2cnc(C)c([C@H](OC(C)(C)C)C(=O)O)c2N2CCC(C)(C)CC2)nc1	MT-2	EC50	-	NL4-3	luminescence	0.005 µM
CC(C)=CCOc1cc(NC(=S)c2ccsc2C)ccc1Cl	AA5	EC50	-	IIIB	cytopathic effect / XTT	0.009 µM
O=C(O)c1cc(-n2cccc2)ccc1Cl	PBMC/5.25M7	EC50	-	93UG065 X4 CLADE D	luciferase / cell fusion	93.56 µM
O=C(C(=O)N1CCN(C(=O)c2cccc(F)c2)CC1)c1c[nH]c2ccccc12	MT-2	EC50	-	BRU	RT activity	<10 µM
CCCCOC(=S)Nc1ccc(Cl)c(C(=O)OC(C)C)c1	CEM	EC50	RT-L100I	-	syncytia	10.6 µM
CN1CCN(CCCCN2c3ccccc3C3C2C=C(C#N)C(=O)N3c2ccc([N+](=O)[O-])cc2)CC1	MT-4	EC50	-	LAI	cytopathic effect / MTT	1–32 µM
Cc1ncc(-c2ccc(OCCOc3ccc(F)cc3)cn2)c(N2CCC(C)(C)CC2)c1[C@H](OC(C)(C)C)C(=O)O	MT-2	EC50	-	NL4-3	luminescence	0.0007 µM
CCN1c2ncc(CCOc3ccc(Nc4cccc(CC(=O)O)c4)cc3C)cc2C(=O)N(C)c2cccnc21	C8166	EC50	RT-K103N Y181C	-	p24	<0.01 µM
Cc1nc2ccc(Cl)cc2c(-c2ccc(C(F)(F)F)cc2)c1C(OC(C)C)C(=O)O	C8166	EC50	-	-	luciferase / reporter gene	<20 µM
Cc1ncc(-c2ccc(OCCOc3ccccc3C(=O)O)cn2)c(N2CCC(C)(C)CC2)c1[C@H](OC(C)(C)C)C(=O)O	MT-2	EC50	-	NL4-3	luminescence	0.1514 µM
N#CC1=CC2C(c3ccccc3N2CCCCN2CCCC2)N(c2ccc([N+](=O)[O-])cc2)C1=O	MT-4	EC50	-	LAI	cytopathic effect / MTT	<1 µM
Cc1ncc(-c2ccc(OC(c3ccc(F)cc3)C3CC3)c(F)c2)c(N2CCC(C)(C)CC2)c1[C@H](OC(C)(C)C)C(=O)O	MT-2	EC50	-	NL4-3	luminescence	0.0047 µM
CCCCN1c2ccccc2C2C1C=C(C#N)C(=O)N2c1ccc([N+](=O)[O-])cc1	MT-4	EC50	-	LAI	cytopathic effect / MTT	<1 µM
O=C1Nc2ccc(Cl)cc2[C@@](C#CC2CC2)(C(F)(F)F)N1	-	EC90	-	-	-	0.0019 µM
COc1ccc(-c2c(C(OC(C)C)C(=O)O)c(C)nc3ccc(Cl)cc23)cn1	C8166	EC50	-	-	luciferase / reporter gene	<20 µM
C[C@@H]1CN(C(=O)c2cccc(N)c2)CCN1C(=O)C(=O)c1c[nH]c2cccc(F)c12	HeLa + HELA CD4+/CCR5	EC50	-	-	luciferase	<10 µM
CN1c2ccccc2C2C1C=C(C#N)C(=O)N2c1ccc(N)cc1	MT-4	EC50	-	LAI	cytopathic effect / MTT	>32 µM
CCCc1cc(=O)oc2c3c(c4c(c12)OC(C)(C)CC4)O[C@@H](C)[C@H](C)[C@@H]3O	CEM + CEM-SS	EC50	RT-V108I	NL4-3	cytopathic effect / XTT	1.2 µM
CCCC(C(=O)O)c1c(CC)nc2ccc(Cl)cc2c1-c1ccc(Cl)cc1	C8166	EC50	-	-	luciferase / reporter gene	<20 µM
COc1ccnc2[nH]cc(C(=O)C(=O)N3C4CCCC3CN(C(=O)c3ccccc3)C4)c12	TZM-bl	EC90	-	6535	luciferase	6.7 µM
C[C@@H]1CN(C(=O)c2ccccc2)CCN1C(=O)C(=O)c1c[nH]c2c([N+](=O)[O-])cccc12	HeLa + HELA CD4+/CCR5	EC50	-	-	luciferase	<10 µM
COc1ccnc2[nH]cc(C(=O)C(=O)N3CCN(C(=O)c4ccccc4)C[C@H]3C)c12	TZM-bl	EC90	-	AC10	luciferase	0.69 µM
CCCc1ccc(-c2c(C(OC(C)C)C(=O)O)c(C)nc3ccc(Cl)cc23)cc1F	C8166	EC50	-	-	luciferase / reporter gene	<20 µM
O=C(C(=O)N1CCN(C(=O)c2cccnc2)CC1)c1c[nH]c2cccc(F)c12	HeLa + HELA CD4+/CCR5	EC50	-	-	luciferase	<10 µM
COc1ccc(-c2c(C(OC(C)C)C(=O)O)c(C)nc3ccc(Cl)cc23)cc1C	C8166	EC50	-	-	luciferase / reporter gene	<20 µM
O=C(C(=O)N1CCN(C(=O)c2ccccc2)CC1)c1c[nH]c2c(F)c(F)c(F)c(F)c12	HeLa + HELA CD4+/CCR5	EC50	-	-	luciferase	<10 µM
CC(C)=CCOc1cc(NC(=S)c2ccoc2C)ccc1Cl	CEM + CEM-SS	EC50	RT-Y181C	E BPTU-resistant (RT Y181C)	cytopathic effect / XTT	0.4 µM
CCN1c2ncc(CCOc3ccc(NC(=O)CCC(=O)O)cc3C)cc2C(=O)N(C)c2cccnc21	C8166	EC50	RT-K103N Y181C	-	p24	>0.05 µM
CCC(=O)c1ccc(F)c([C@@H]2C[C@@H]2NC(=O)Nc2ccc(C#N)cn2)c1O	TZM-bl	EC50	NNRTI-resistant (RT V106I)	LAI	β-galactosidase / luminescence	0.00078 µM
CCCC(C(=O)O)c1c(C)nc2ccc(Cl)cc2c1-c1ccc(C)c(Cl)c1	C8166	EC50	-	-	luciferase / reporter gene	<20 µM
Cn1c2ccccc2c2c1cc(C#N)c(=O)n2-c1ccc([N+](=O)[O-])cc1	MT-4	EC50	RT-Y188L	F	cytopathic effect / MTT	0.04 µM
CCN1c2ncc(CCOc3ccc(C(=O)NC(C)(C)C(=O)O)cc3C)cc2C(=O)N(C)c2cccnc21	C8166	EC50	RT-K103N Y181C	-	p24	>0.05 µM
Cc1ccc(OCCN(C)c2ccc(-c3cnc(C)c([C@H](OC(C)(C)C)C(=O)O)c3N3CCC(C)(C)CC3)cn2)cc1C	MT-2	EC50	-	NL4-3	luminescence	0.004 µM
N#CC1=CC2C(c3ccccc3N2CCN2CCCCC2)N(c2ccc([N+](=O)[O-])cc2)C1=O	MT-4	EC50	-	LAI	cytopathic effect / MTT	<1 µM

4 of the rows above, restated:

compound | cell line | measure | mutations | strain | read by | value
Cc1ccc(OCCN(C)c2ccc(-c3cnc(C)c([C@H](OC(C)(C)C)C(=O)O)c3N3CCC(C)(C)CC3)cn2)cc1C | MT-2 | EC50 | - | NL4-3 | luminescence | 0.004 µM
CCCC(C(=O)O)c1c(CC)nc2ccc(Cl)cc2c1-c1ccc(Cl)cc1 | C8166 | EC50 | - | - | luciferase / reporter gene | <20 µM
C[C@@H]1CN(C(=O)c2cccc(N)c2)CCN1C(=O)C(=O)c1c[nH]c2cccc(F)c12 | HeLa + HELA CD4+/CCR5 | EC50 | - | - | luciferase | <10 µM
CCCCOC(=S)Nc1ccc(Cl)c(C(=O)OC(C)C)c1 | CEM | EC50 | RT-L100I | - | syncytia | 10.6 µM

ECn is the concentration giving n% inhibition of infection, replication or growth. a–b is a range or a potency band. An empty or dashed field is not shown.